Measured values: US6699834B1, “Method for treating cancer” (University of Maryland Biotechnology Institute, priority 1997, dated 2004)

Legend:
HIV-1 = conditions: for HIV in vitro Inhibition: inhibition of HIV-1 replication in vitro (HIV-1 strains and HIV-1 primary isolates)
Description: To prepare HIV infected cells for the in vitro assay of hCG preparations and β-hCG peptides and derivatives, primary PBMCs, macrophages, and CD4^+ T cells isolated from peripheral blood and the H9 human T cell line, were acutely or chronically infected with 8 different HIV-1 strains: 4 cell line adapted viruses, namely the macrophage tropic Ba-L strain (Gartner et al., 1986, Science 233:215-219) and the CD4^+ T cell tropic MN, RF, and IIIB strains (10^5 TCID50/ml) (Popovic et al., 1984, Science […]; Gallo et al.; 1984, Science 224:500-503); 2 isolates, Ju1083 and G3, from Nigerian AIDS patients passed once in a CD4^+ T cell line (Sub-T1); and 2 primary (“clinical”) isolates from AIDS patients from Trinidad which were never passed in any cell line and were used at a titer of 7.5×10^4TCID50/ml. In all experiments; HIV1 (10^5 TCID50/ml) was added to the cells(10^6 cells/ml) for a 2 hour incubation after which the virus infected cells were washed with 10 ml phosphate buffered saline (PBS) three times to eliminate extra cellular virus. The test inhibitor, i.e. the hCG or β-hCG peptide preparation was then added and the cells were incubated with the test inhibiter for 9 to 10 days with serial sampling. Cultures were assayed for p24 antigen on days 3 to 10.
Peptides of the α- and β-subunits (0.05 to 50 nmoles/ml), native α chain preparation, and various crude preparations of the native hCG heterodimer (0.01 to 1,000 IU) and the native β-hCG subunit (100 to 1,000 μg) were tested for effects on HIV-1 replication in acutely infected cells-by measuring change in viral antigen levels in response to the above noted preparations (FIGS. 4A-D and Table 3).
The fractions were then tested for anti-HIV, anti-KS and pro-hematopoietic activities in vitro. To assay for inhibition of HIV-1 replication in vitro, the HIV-1 […] viral strain was used to infect PBMCs and PM-1 cells (derived from the HUT-78 T-cell lymphoma cell line) at 10^3 TCID50/ml as described in detail herein.

HIV-1 transgenic mice = experiment: Survival, growth and weight of HIV-1 transgenic mouse pups; type: in vivo; conditions: for survival at 10 days after birth: administered first 5 days after birth through mothers milk
Method: (§1) The HIV-1 transgenic mice used for this study contain 7.4 kb of foreign DNA, including 5.1 kb of the HIV-1 proviral genome deleted in the gag and pol genes and 2.3 kb of vector (Dickie et al., 1991, Virology 185:109-119). […] In addition, these mice develop severe hyperkeratotic skin lesions with marked expression of gp 120 and nef genes (Kopp et al., 1993, AIDS Res. Hum. Retroviruses 9:267-275; Vasli et al., 1994, AIDS Res. Hum. Retroviruses 10:1241-1250).
(§2) Finally, certain fractions were tested for their ability to increase survival, promote weight gain and reduce HIV-1 gene expression in HIV-1 transgenic mice as described herein.
HIV-I transgenic pups administered hCG and hCG-related preparations for the first 5 days after birth through the mothers milk were monitored for survival at 10 days after birth.

[1] = system: HIV RNA and protein expression; experiment: HIV RNA and protein expression in HIV-1 transgenic mice; type: in vivo; conditions: for inhibition of HIV RNA and protein expression: inhibition of HIV RNA and protein expression in HIV-1 transgenic mice
Description: as §1
Heterozygous transgenic mothers were treated with the hCG preparation subcutaneously twice weekly. Pups received hCG via the mother's milk.
Gene expression was assayed in total RNA extracted from the skin of Tg26 mice with RNAzol. One microgram of RNA was reverse transcribed into cDNA using random hexamer primers and […] reverse transcriptase (Life Technologies, MD) in a final volume of 30 μl. One tenth of the cDNA reactions were used for PCR amplification of various HIV gene sequences (env, tat, rev, nef and vif). In addition, glyceraldehyde 3-phosphate dehydrogenase (GAPHD) mRNA was amplified for each sample for normalization. Following 25 cycles of amplification, 10% of the PCR product was resolved by electrophoresis through 2% agarose gels and processed for Southern hybridization using FITC-labeled oligonucleotide probes complimentary to internal sequences of the amplicons. Detection was performed by chemiluminescence (Amersham) and relative mRNA levels determined by densitometry after normalization with GAPDH mRNA levels.
as §2

Row | Substance | HIV in vitro Inhibition (HIV-1) | survival at 10 days after birth (HIV-1 transgenic mice) | inhibition of HIV RNA and protein expression [1] | other results
1 | CR1XY17B: mixture of highly purified α-hCG and β-hCG from NICHD, NIH [reference compound] | − (“−” represents less than 10% effect) | – | – | inhibition of HIV-1 infection/replication in vitro (in words) (HIV-1): little or no inhibition
2 | CR1XY17V: highly purified hCG preparation from NICHD, NIH [reference compound] | − (“−” represents less than 10% effect) | – | – | –
3 | CR127: highly purified hCG preparation from NICHD, NIH [reference compound] | − (“−” represents less than 10% effect) | failed to promote survival | – | inhibition of HIV-1 infection/replication in vitro (in words) (HIV-1): little or no inhibition
4 | LH: luteinizing hormone | – | to a lesser extent | – | –
5 | ORGANON: a highly purified hCG preparation obtained from Organon | − (“−” represents less than 10% effect) | – | – | –
6 | rhCG: recombinant hCG expressed in a mouse cell line (Sigma) | − (“−” represents less than 10% effect) | – | − (“−” represents less than 10% effect) | –
7 | rαhCG: recombinant α subunit expressed in mouse cells (Sigma) | − (“−” represents less than 10% effect) | – | − (“−” represents less than 10% effect) | –
8 | αfp1769A: purified, native α subunit (NICHD, NIH) | − (“−” represents less than 10% effect) | – | – | –
9 | αhCG: purified native α subunit of hCG (Sigma) | − (“−” represents less than 10% effect) | failed to promote survival | − (“−” represents less than 10% effect) | HIV-1 gene / protein expression in transgenic mice (in words) ([1]; pups dosed via mother's milk): no effect; weight gain / growth retardation and cachexia (HIV-1 transgenic mice; HIV-1 transgenic pups): no effect; inhibition of HIV-1 infection/replication in vitro (in words) (HIV-1; listed as Native α-hCG): little or no effect

Read-outs that look alike come from different tables or passages of the source.
